# HIV-1 5' UTR: effect of mutations on RNA dimer formation

The measurements come from Ye et al. 2022 (doi:10.1038/s41594-022-00746-2).

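Mutant RNA libraries with 1G, 2G or 3G starts, with or without cap, were folded at 37 °C for 30 min. Monomer and dimer bands were cut from native gels after folding in high salt (300 mM KCl, 5 mM MgCl2) or low salt (40 mM KCl, 0.1 mM MgCl2). Kdimer compares mutation frequencies in monomer and dimer, corrected for sequencing errors.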

The 5' region of HIV-1 NL4-3 RNA (positions 1-437):
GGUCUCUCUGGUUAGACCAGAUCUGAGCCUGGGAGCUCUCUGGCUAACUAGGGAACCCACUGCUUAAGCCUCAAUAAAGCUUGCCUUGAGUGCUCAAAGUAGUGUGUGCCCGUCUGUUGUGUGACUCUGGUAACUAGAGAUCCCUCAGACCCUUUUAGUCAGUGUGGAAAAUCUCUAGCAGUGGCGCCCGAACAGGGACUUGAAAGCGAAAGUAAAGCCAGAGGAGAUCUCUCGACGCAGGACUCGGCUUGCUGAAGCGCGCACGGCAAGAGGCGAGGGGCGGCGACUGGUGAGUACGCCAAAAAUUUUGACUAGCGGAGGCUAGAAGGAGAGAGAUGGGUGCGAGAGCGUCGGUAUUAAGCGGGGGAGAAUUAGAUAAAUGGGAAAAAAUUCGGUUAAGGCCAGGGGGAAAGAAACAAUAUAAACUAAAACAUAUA

Scale: median log2 Kdimer over the changes at a position; positive = changes inhibit dimerization, negative = changes enhance it.
One numbering serves 1G, 2G and 3G.
A position is written with its base where known.
The source gives no letters past position 437.

| # | position | domain | 1G capped low-salt | 3G uncapped low-salt |
|---|---|---|---|---|
| 1 | A21 | TAR | -0.06 | -0.12 |
| 2 | U30 | TAR | -0.25 | 0.04 |
| 3 | G32 | TAR | -0.08 | 0.03 |
| 4 | A34 | TAR | -0.02 | -0.05 |
| 5 | U41 | TAR | -0.54 | -0.15 |
| 6 | G42 | TAR | -0.43 | -0.32 |
| 7 | C48 | TAR | -0.50 | -0.62 |
| 8 | C69 | PolyA | -0.23 | -0.11 |
| 9 | U71 | PolyA | 0.22 | -0.02 |
| 10 | C80 | PolyA | -0.02 | 0.42 |
| 11 | G83 | PolyA | -0.19 | -0.20 |
| 12 | U86 | PolyA | 0.23 | -0.10 |
| 13 | G90 | PolyA | -0.44 | -0.53 |
| 14 | G92 | PolyA | 0.39 | 0.46 |
| 15 | C125 | PAS | 0.37 | 0.67 |
| 16 | G130 | PAS | 0.30 | 0.85 |
| 17 | C134 | PBS | -0.17 | -0.14 |
| 18 | U135 | PBS | 0.00 | -0.08 |
| 19 | G137 | PBS | 0.49 | 0.39 |
| 20 | C143 | PBS | 0.09 | 0.16 |
| 21 | C144 | PBS | 0.19 | 0.06 |
| 22 | C150 | PBS | 0.44 | 0.54 |
| 23 | G158 | PBS | -0.28 | -0.20 |
| 24 | G162 | PBS | -0.26 | -0.45 |
| 25 | A168 | PBS | 0.28 | 0.38 |
| 26 | A170 | PBS | 0.00 | 0.03 |
| 27 | U174 | PBS | -0.53 | -0.65 |
| 28 | U176 | PBS | 0.05 | 0.03 |
| 29 | G178 | PBS | 0.18 | 0.22 |
| 30 | G184 | PBS | 0.27 | 0.89 |
| 31 | A194 | PBS | 0.38 | 0.88 |
| 32 | G197 | PBS | 0.32 | 1.06 |
| 33 | A210 | PBS | -0.04 | -0.11 |
| 34 | A215 | PBS | -0.13 | -0.03 |
| 35 | A220 | antiPAS | -0.05 | -0.11 |
| 36 | C229 | CU | 0.24 | 0.47 |
| 37 | C231 | CU | -0.05 | 0.07 |
| 38 | U232 | CU | 0.71 | 1.02 |
| 39 | C233 | CU | 0.82 | 0.74 |
| 40 | A242 | none | 1.32 | 1.98 |
| 41 | C243 | SL1 | 1.15 | 1.72 |
| 42 | C248 | SL1 | 0.57 | 0.78 |
| 43 | G251 | SL1 | 3.86 | 5.33 |
| 44 | G254 | SL1 | 1.86 | 2.63 |
| 45 | G261 | SL1 | 3.01 | 4.04 |
| 46 | G272 | SL1 | -0.42 | -0.43 |
| 47 | G277 | SL1 | 2.30 | 2.66 |
| 48 | G278 | none | 0.43 | 0.26 |
| 49 | C281 | none | 0.40 | 0.54 |
| 50 | G282 | none | 0.85 | 1.29 |
| 51 | A286 | SL2 | -0.02 | 0.54 |
| 52 | U288 | SL2 | -0.05 | -0.06 |
| 53 | U291 | SL2 | -0.29 | -0.24 |
| 54 | C297 | SL2 | -0.12 | -0.03 |
| 55 | A301 | none | 0.46 | 0.31 |
| 56 | C312 | SL3 | 0.14 | 0.33 |
| 57 | A319 | SL3 | 0.12 | 0.21 |
| 58 | A326 | none | -0.04 | -0.05 |
| 59 | G335 | AUG | 0.43 | 1.11 |
| 60 | G361 | none | -0.21 | 0.30 |
| 61 | G365 | none | -0.09 | 0.37 |
| 62 | U372 | none | -0.14 | -0.13 |
| 63 | A380 | none | -0.12 | 0.02 |
| 64 | C403 | none | -0.18 | -0.03 |
| 65 | A410 | none | -0.06 | 0.00 |
| 66 | A411 | none | 0.06 | 0.00 |
| 67 | A416 | none | 0.01 | 0.25 |
| 68 | A418 | none | 0.01 | 0.02 |
| 69 | A430 | none | -0.01 | 0.01 |
| 70 | C432 | none | 0.03 | 0.10 |
| 71 | A435 | none | -0.03 | 0.06 |
| 72 | 438 | none | -0.02 | -0.03 |
| 73 | 441 | none | -0.10 | 0.04 |
| 74 | 448 | none | 0.01 | -0.10 |
| 75 | 454 | none | -0.09 | -0.05 |
| 76 | 462 | none | -0.01 | 0.05 |
| 77 | 467 | none | 0.02 | -0.22 |
| 78 | 472 | none | 0.00 | 0.01 |
| 79 | 480 | none | 0.05 | 0.03 |
| 80 | 493 | none | -0.01 | 0.04 |
| 81 | 496 | none | 0.06 | -0.03 |
| 82 | 499 | none | 0.05 | -0.12 |
| 83 | 502 | none | 0.01 | 0.15 |
| 84 | 512 | none | -0.03 | -0.03 |
| 85 | 515 | none | -0.02 | -0.14 |

The opening 8 entries, copied out:

- A21 (domain TAR): 1G capped low-salt -0.06; 3G uncapped low-salt -0.12
- U30 (domain TAR): 1G capped low-salt -0.25; 3G uncapped low-salt 0.04
- G32 (domain TAR): 1G capped low-salt -0.08; 3G uncapped low-salt 0.03
- A34 (domain TAR): 1G capped low-salt -0.02; 3G uncapped low-salt -0.05
- U41 (domain TAR): 1G capped low-salt -0.54; 3G uncapped low-salt -0.15
- G42 (domain TAR): 1G capped low-salt -0.43; 3G uncapped low-salt -0.32
- C48 (domain TAR): 1G capped low-salt -0.50; 3G uncapped low-salt -0.62
- C69 (domain PolyA): 1G capped low-salt -0.23; 3G uncapped low-salt -0.11